Pooled drug test results. Numbers come from NIAID ChemDB, via PubChem.

All rows: growth or infection tests; agent: Candida krusei

An empty or dashed field is not shown.

| smiles | dose | method | setting | read-out | strain or isolate | value |
|---|---|---|---|---|---|---|
| C[C@@H]1[C@H](O)[C@@H](C)/C=C/C=C/CC/C=C/C=C/C=C/C=C/C(O[C@H]2O[C@H](C)[C@@H](O)[C@H](N)[C@@H]2O)CC2O[C@](O)(CC(O)C(O)CCC(O)CC(O)CC(O)CC(=O)O[C@H]1C)CC(O)C2C(=O)O |  | broth dilution |  | MIC100 | LM 120 | 64 µg/mL |
| O=[N+]([O-])c1cc(CSc2nnnn2C2CCCCC2)cc([N+](=O)[O-])c1 |  | broth dilution | 48 h | EC80 | E28 | >500 µM |
| Cc1ccc(C(C)C)cc1 |  | broth dilution |  | MIC |  | 22600 µg/mL |
| C[C@H]1[C@H](O)[C@@H](C)/C=C/C=C/C=C/C=C/C=C/C=C/C=C/[C@H](O[C@@H]2O[C@H](C)[C@@H](O)[C@H](N)[C@@H]2O)C[C@@H]2O[C@](O)(C[C@@H](O)C[C@@H](O)CC[C@H](O)[C@@H](O)C[C@@H](O)CC(=O)O[C@H]1C)C[C@H](O)[C@H]2C(=O)O |  |  |  | MIC90 | 17 isolates | 2 µg/mL |
| O=[N+]([O-])c1cc(C[Se]c2nnnn2C2CCCCC2)cc([N+](=O)[O-])c1 |  | broth dilution | 24 h | EC80 | E28 | >500 µM |
| C=CCc1ccc(OC)c(OC)c1 |  | broth dilution |  | MIC |  | 1280 µg/mL |
| CC(C)=CCOc1ccc(C2CC(=O)c3ccc(O)cc3O2)cc1 | 100 µg/mL | agar diffusion / agar |  | zone |  | 0 mm |
| O=[N+]([O-])c1cc(CSc2nnnn2Cc2ccccc2)cc([N+](=O)[O-])c1 |  | broth dilution | 24 h | EC80 | E28 | >500 µM |
| COc1ccccc1O |  | broth dilution |  | MIC |  | 10 µg/mL |
| C[C@@H](c1ncncc1F)[C@](O)(Cn1cncn1)c1ccc(F)cc1F |  |  |  | MIC50 | 17 isolates | 0.5 µg/mL |
| COc1cc(C2CC(=O)c3c(O)cc(O)cc3O2)ccc1OCC=C(C)C | 100 µg/mL | agar diffusion / agar |  | zone |  | 0 mm |
| O=[N+]([O-])c1ccc(C[Se]c2nnnn2C2CCCCC2)c([N+](=O)[O-])c1 |  | broth dilution | 48 h | EC80 | E28 | >500 µM |
| COc1cc(C[C@H](C)[C@H](C)Cc2ccc(O)c(O)c2)ccc1O |  | broth dilution |  | MIC100 | CCC 117-2000 | 125 µg/mL |
| Cc1ccc(C(C)C)cc1O |  | broth dilution |  | MIC |  | 200 µg/mL |
| O=[N+]([O-])c1cc(C[Se]c2nnnn2Cc2ccccc2)cc([N+](=O)[O-])c1 |  | broth dilution | 48 h | EC80 | E28 | >500 µM |

2 of the rows above, restated:

smiles | dose | method | setting | read-out | strain or isolate | value
C[C@H]1[C@H](O)[C@@H](C)/C=C/C=C/C=C/C=C/C=C/C=C/C=C/[C@H](O[C@@H]2O[C@H](C)[C@@H](O)[C@H](N)[C@@H]2O)C[C@@H]2O[C@](O)(C[C@@H](O)C[C@@H](O)CC[C@H](O)[C@@H](O)C[C@@H](O)CC(=O)O[C@H]1C)C[C@H](O)[C@H]2C(=O)O |  |  |  | MIC90 | 17 isolates | 2 µg/mL
C=CCc1ccc(OC)c(OC)c1 |  | broth dilution |  | MIC |  | 1280 µg/mL

A number after MIC or MFC names an inhibition level or a share of isolates. Zones are inhibition diameters on agar. Lines come from different laboratories, so protocols vary. ECn is the concentration giving n% inhibition of infection, replication or growth.